Values of other authors in patent publication US7205435B2 (priority 2001, dated 2007).

Chains of the proteins cited; added tags and fusions are not shown.
UniProt P10844, whole entry, looked up: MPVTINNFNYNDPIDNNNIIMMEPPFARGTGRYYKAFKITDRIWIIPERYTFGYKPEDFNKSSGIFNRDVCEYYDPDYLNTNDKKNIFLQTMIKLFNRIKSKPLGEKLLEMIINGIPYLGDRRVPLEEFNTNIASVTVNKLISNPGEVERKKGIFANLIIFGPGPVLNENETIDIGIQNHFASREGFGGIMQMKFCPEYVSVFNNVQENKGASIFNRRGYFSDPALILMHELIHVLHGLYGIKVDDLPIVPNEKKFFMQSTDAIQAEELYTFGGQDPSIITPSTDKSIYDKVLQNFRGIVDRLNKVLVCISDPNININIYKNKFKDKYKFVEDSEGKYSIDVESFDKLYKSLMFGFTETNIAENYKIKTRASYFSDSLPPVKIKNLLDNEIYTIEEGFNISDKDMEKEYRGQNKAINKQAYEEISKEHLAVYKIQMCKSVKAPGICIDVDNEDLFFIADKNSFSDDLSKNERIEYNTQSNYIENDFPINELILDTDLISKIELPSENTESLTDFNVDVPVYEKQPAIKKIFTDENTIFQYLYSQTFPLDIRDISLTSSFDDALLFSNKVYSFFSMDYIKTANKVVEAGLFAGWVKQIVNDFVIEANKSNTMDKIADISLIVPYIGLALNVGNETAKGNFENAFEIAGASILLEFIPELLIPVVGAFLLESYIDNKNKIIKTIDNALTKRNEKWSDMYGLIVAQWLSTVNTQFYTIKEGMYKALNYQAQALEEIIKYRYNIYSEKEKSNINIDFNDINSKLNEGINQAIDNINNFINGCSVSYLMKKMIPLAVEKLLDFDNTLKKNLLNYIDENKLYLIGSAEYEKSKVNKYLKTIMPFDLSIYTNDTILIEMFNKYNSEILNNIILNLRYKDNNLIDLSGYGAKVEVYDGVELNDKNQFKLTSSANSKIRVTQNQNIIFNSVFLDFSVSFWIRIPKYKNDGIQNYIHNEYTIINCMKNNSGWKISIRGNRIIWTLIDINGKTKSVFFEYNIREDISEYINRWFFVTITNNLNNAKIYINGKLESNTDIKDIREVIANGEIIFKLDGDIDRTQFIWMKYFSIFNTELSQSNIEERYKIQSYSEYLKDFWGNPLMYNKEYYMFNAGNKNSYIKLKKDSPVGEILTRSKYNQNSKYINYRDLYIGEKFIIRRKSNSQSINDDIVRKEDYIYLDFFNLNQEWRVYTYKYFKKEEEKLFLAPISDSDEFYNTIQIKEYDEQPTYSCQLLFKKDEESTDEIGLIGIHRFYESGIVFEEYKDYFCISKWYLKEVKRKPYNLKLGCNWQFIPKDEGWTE

Molecular target: BoNT/B (Clostridium botulinum, UniProt P10844)

Substance: 7-N-phenylcarbamoylamino-4-chloro-3-propyloxycoumarin [ICD 1578]
- IC50: 27 µM
